{
  "source": "paper PMC10434001",
  "about": "(2023)",
  "binders": {"B1": {"name": "SARS-CoV-2 ORF8 ([…]) with N-terminal 8×His tag and maltose binding protein (MBP) tag (domain or fragment)", "chain": "not shown", "modifications": "N-glycosylation (N-acetyl-beta-d-glucosamine, NAG) at N78"}},
  "assay_in_all_cases": "SPR",
  "key": {"peptide P2": {"target": "peptide P2"}, "peptide P5": {"target": "peptide P5"}, "[1]": {"target": "peptide P3, derived from IL17RA"}, "peptide P1": {"target": "peptide P1"}, "peptide P4": {"target": "peptide P4"}},
  "data": [
    {"binder": "B1", "values": [
      {"measurement": "Kd", "setting": "peptide P2", "result": 1250, "unit": "nM"},
      {"measurement": "Kd", "setting": "peptide P5", "result": 1990, "unit": "nM"},
      {"measurement": "Kd", "setting": "[1]", "result": 889, "unit": "nM"},
      {"measurement": "Kd", "setting": "peptide P1", "result": 179, "unit": "nM"},
      {"measurement": "Kd", "setting": "peptide P4", "result": 1510, "unit": "nM"}
    ]}
  ]
}
